Results: publication PMC11320581 (ACS Infectious Diseases, 2024)

Tested on: N. gonorrhoeae topoisomerase IV carrying ParC^S87N, ParC^E91G, or ParC^S87N/E91G
Conditions: 100 μM SPT, vs wild-type

Structure (SMILES): C[C@@H]1CN2c3c(cc4c(N5C(=O)OC[C@@H]5C)noc4c3F)CC3(C(=O)NC(=O)NC3=O)[C@H]2[C@H](C)O1 [zoliflodacin, Zoliflodacin]
- fold reduction of double-stranded DNA scission by fluoroquinolone resistance mutations in topoisomerase IV: 1.6- to 3 fold
